{"source": "PubChem BioAssay AID504761 (Drosophila RNAi Screening Center, 2011)", "screen": "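Fly genes whose silencing reduces dengue virus type 2 infection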 (primary screen)", "system": "D.Mel-2 cells from Drosophila", "knock-down reagent": "long dsRNA against Drosophila genes", "challenge": "infection with dengue virus type 2; dose and infection time not stated", "read-out": "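Cells stained for dengue envelope protein and imaged; percent of infected cells per well on duplicate plates, ranked by infection, with stained nuclei counted for cell number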", "scale": "infection score: higher = more virus-infected cells; cell count: higher = more cells in the well", "call rule": "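Very low infection ranking in both replicate wells (chance probability at most 0.065), then a retest showing infection dropped 1.5-fold or more at p below 0.05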", "calls": "active = confirmed: knock-down lowers infection; inactive = not picked or not confirmed", "note": "The deposit covers about 22,000 reagents; shown is a random part of those that have a named target and a result. Over the whole deposit, 116 (0.52%) are marked active. 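Calls depend on retest data that are not deposited; infection was ranked per plate without normalising between plates; the unit of the infection score is not given.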 Raw values vary from plate to plate and are shown uncorrected. Reagents against one gene are numbered here. A plus sign joins genes that one reagent is predicted to hit. No sequences are given here. The record does not give: the amount of reagent, the time to read-out."}
{"target gene":"CG2217 + CG42740","reagent no.":1,"infection score, replicate 1":4.21,"infection score, replicate 2":10.2,"cell count, replicate 1":6557,"cell count, replicate 2":6590,"Call":"inactive"}
{"target gene":"nbs","reagent no.":1,"infection score, replicate 1":7.03,"infection score, replicate 2":1.43,"cell count, replicate 1":5917,"cell count, replicate 2":6563,"Call":"inactive"}
{"target gene":"nbs","reagent no.":2,"infection score, replicate 1":2.84,"infection score, replicate 2":1.05,"cell count, replicate 1":5597,"cell count, replicate 2":5829,"Call":"inactive"}
{"target gene":"Ice2 (Interacts with the C terminus of ELL 2)","reagent no.":1,"infection score, replicate 1":3.07,"infection score, replicate 2":6.78,"cell count, replicate 1":6184,"cell count, replicate 2":6301,"Call":"inactive"}
{"target gene":"CG14829","reagent no.":1,"infection score, replicate 1":2.73,"infection score, replicate 2":2.81,"cell count, replicate 1":6406,"cell count, replicate 2":6403,"Call":"inactive"}
{"target gene":"cold (coiled)","reagent no.":1,"infection score, replicate 1":4.25,"infection score, replicate 2":6.21,"cell count, replicate 1":6262,"cell count, replicate 2":6360,"Call":"inactive"}
{"target gene":"CG10550","reagent no.":1,"infection score, replicate 1":2.1,"infection score, replicate 2":2.32,"cell count, replicate 1":6531,"cell count, replicate 2":6592,"Call":"inactive"}
{"target gene":"CG7295","reagent no.":1,"infection score, replicate 1":14.1,"infection score, replicate 2":10.9,"cell count, replicate 1":6768,"cell count, replicate 2":6036,"Call":"inactive"}
{"target gene":"CG31804","reagent no.":1,"infection score, replicate 1":3.67,"infection score, replicate 2":5.15,"cell count, replicate 1":6722,"cell count, replicate 2":6911,"Call":"inactive"}
{"target gene":"Cpr51A (Cuticular protein 51A)","reagent no.":1,"infection score, replicate 1":1.95,"infection score, replicate 2":12.5,"cell count, replicate 1":6785,"cell count, replicate 2":5794,"Call":"inactive"}
{"target gene":"CG13947","reagent no.":1,"infection score, replicate 1":2.82,"infection score, replicate 2":4.23,"cell count, replicate 1":5893,"cell count, replicate 2":6294,"Call":"inactive"}
{"target gene":"CG13947","reagent no.":2,"infection score, replicate 1":2.99,"infection score, replicate 2":3.6,"cell count, replicate 1":6024,"cell count, replicate 2":6140,"Call":"inactive"}
{"target gene":"CG18258","reagent no.":1,"infection score, replicate 1":3.78,"infection score, replicate 2":2.3,"cell count, replicate 1":6447,"cell count, replicate 2":6046,"Call":"inactive"}
{"target gene":"CG18258","reagent no.":2,"infection score, replicate 1":11.3,"infection score, replicate 2":12.9,"cell count, replicate 1":5756,"cell count, replicate 2":3966,"Call":"inactive"}

Targets above whose target name starts with N or n (2):
{"target gene":"nbs","reagent no.":1,"infection score, replicate 1":7.03,"infection score, replicate 2":1.43,"cell count, replicate 1":5917,"cell count, replicate 2":6563,"Call":"inactive"}
{"target gene":"nbs","reagent no.":2,"infection score, replicate 1":2.84,"infection score, replicate 2":1.05,"cell count, replicate 1":5597,"cell count, replicate 2":5829,"Call":"inactive"}

Continued.
{"target gene":"CG31550","reagent no.":1,"infection score, replicate 1":10.7,"infection score, replicate 2":20.5,"cell count, replicate 1":6800,"cell count, replicate 2":6095,"Call":"inactive"}
{"target gene":"CG31550","reagent no.":2,"infection score, replicate 1":12.1,"infection score, replicate 2":15.8,"cell count, replicate 1":6441,"cell count, replicate 2":5932,"Call":"inactive"}
{"target gene":"CG31550","reagent no.":3,"infection score, replicate 1":15.4,"infection score, replicate 2":1,"cell count, replicate 1":5413,"cell count, replicate 2":701,"Call":"inactive"}
{"target gene":"CG2124","reagent no.":1,"infection score, replicate 1":0.51,"infection score, replicate 2":0.77,"cell count, replicate 1":6255,"cell count, replicate 2":6084,"Call":"active"}
{"target gene":"CG13050","reagent no.":1,"infection score, replicate 1":0.85,"infection score, replicate 2":0.63,"cell count, replicate 1":5756,"cell count, replicate 2":6152,"Call":"inactive"}
{"target gene":"goe (gone early)","reagent no.":1,"infection score, replicate 1":2.55,"infection score, replicate 2":3.56,"cell count, replicate 1":6233,"cell count, replicate 2":6156,"Call":"inactive"}
{"target gene":"goe (gone early)","reagent no.":2,"infection score, replicate 1":22.9,"infection score, replicate 2":10,"cell count, replicate 1":5974,"cell count, replicate 2":5939,"Call":"inactive"}
{"target gene":"Tsp42En (Tetraspanin 42En)","reagent no.":1,"infection score, replicate 1":3.1,"infection score, replicate 2":26.2,"cell count, replicate 1":6027,"cell count, replicate 2":5886,"Call":"inactive"}
{"target gene":"ms(2)35Ci (male sterile (2) 35Ci)","reagent no.":1,"infection score, replicate 1":1.37,"infection score, replicate 2":1.71,"cell count, replicate 1":5915,"cell count, replicate 2":5847,"Call":"inactive"}
{"target gene":"Lst8","reagent no.":1,"infection score, replicate 1":1.39,"infection score, replicate 2":3.48,"cell count, replicate 1":6613,"cell count, replicate 2":6806,"Call":"inactive"}
{"target gene":"CG9265","reagent no.":1,"infection score, replicate 1":0.4,"infection score, replicate 2":1.24,"cell count, replicate 1":756,"cell count, replicate 2":6544,"Call":"inactive"}
{"target gene":"CG9265","reagent no.":2,"infection score, replicate 2":7.85,"cell count, replicate 1":580,"cell count, replicate 2":6353,"Call":"inactive"}
{"target gene":"Cyp6a8 (Cytochrome P450 6a8)","reagent no.":1,"infection score, replicate 1":15.2,"infection score, replicate 2":2.68,"cell count, replicate 1":6211,"cell count, replicate 2":6379,"Call":"inactive"}
